Reference: US11980631B2, “β-lactamase inhibitors” (priority 2017, dated 2024)

Chains of the proteins cited; added tags and fusions are not shown. Residues count along the entry.
UniProt P96465, 36-303 limits assumed: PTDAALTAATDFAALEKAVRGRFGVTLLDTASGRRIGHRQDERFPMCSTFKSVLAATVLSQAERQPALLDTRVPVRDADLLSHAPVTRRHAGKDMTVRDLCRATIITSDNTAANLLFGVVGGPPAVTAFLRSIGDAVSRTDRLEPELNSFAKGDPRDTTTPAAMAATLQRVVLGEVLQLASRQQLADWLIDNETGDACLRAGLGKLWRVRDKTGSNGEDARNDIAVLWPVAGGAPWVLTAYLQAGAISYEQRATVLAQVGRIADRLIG
UniProt P9WKD3, 35-307 limits assumed: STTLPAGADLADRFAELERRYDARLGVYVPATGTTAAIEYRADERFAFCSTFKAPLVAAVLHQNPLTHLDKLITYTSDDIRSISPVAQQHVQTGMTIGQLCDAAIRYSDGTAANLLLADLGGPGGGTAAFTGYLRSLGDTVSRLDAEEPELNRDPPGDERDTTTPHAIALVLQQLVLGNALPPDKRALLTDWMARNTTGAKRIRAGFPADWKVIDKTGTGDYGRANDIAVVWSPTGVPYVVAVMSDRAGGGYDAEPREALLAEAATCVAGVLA
UniProt P52700, 34-290 limits assumed: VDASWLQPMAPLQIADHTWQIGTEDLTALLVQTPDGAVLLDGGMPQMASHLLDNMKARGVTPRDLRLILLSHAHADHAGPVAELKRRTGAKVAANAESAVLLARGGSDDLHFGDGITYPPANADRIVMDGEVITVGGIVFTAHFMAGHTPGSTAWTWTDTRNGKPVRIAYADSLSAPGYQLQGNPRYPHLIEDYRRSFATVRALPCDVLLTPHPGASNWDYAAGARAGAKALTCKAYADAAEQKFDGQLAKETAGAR

Experiments:
L2 = L2 (Stenotrophomonas maltophilia (Pseudomonas maltophilia) (Xanthomonas maltophilia), UniProt P96465); assay: Inhibition of purified L2, fluorogenic substrate FC5 as reporter
BlaC = BlaC (Mycobacterium tuberculosis (strain ATCC 25618 / H37Rv), UniProt P9WKD3); assay: BlaC inhibition assay (FC5 hydrolysis, fluorescence); assay type: biochemical
S. maltophilia = conditions: inhibitor at 2 mg/L
[1] = tested on: L1 β-lactamase production in S. maltophilia K279a; assay: L1 β-lactamase induction by β-lactamase inhibitors (meropenem hydrolysis in cell extracts); conditions: 50 μg.mL^−1 inducer
L1 MBL = L1 MBL (Stenotrophomonas maltophilia (Pseudomonas maltophilia) (Xanthomonas maltophilia), UniProt P52700); assay: Inhibition of purified L1, fluorogenic substrate FC5 as reporter; conditions: inhibitor concentrations up to 2.5 mM

## NCc1ccc(C(=O)N[C@H]2Cc3cccc(C(=O)O)c3O[B-]2(O)O)cc1
L2
  IC50: 5.25 nM
  pIC50: 8.27
BlaC; pre-incubation time 0 min
  pIC50: 7.63 ± 0.08
BlaC; pre-incubation time 10 min
  pIC50: 8
BlaC; pre-incubation time 60 min
  pIC50: >8
S. maltophilia; CI-20
  MIC of aztreonam in the presence of the β-lactamase inhibitor: 2 µg/mL
  MIC of ceftazidime in the presence of the β-lactamase inhibitor: 2 µg/mL
  MIC of meropenem in the presence of the β-lactamase inhibitor: 8 µg/mL
S. maltophilia; CI-29
  MIC of aztreonam in the presence of the β-lactamase inhibitor: 1 µg/mL
  MIC of ceftazidime in the presence of the β-lactamase inhibitor: 0.5 µg/mL
  MIC of meropenem in the presence of the β-lactamase inhibitor: 8 µg/mL
S. maltophilia; CI-31
  MIC of ceftazidime in the presence of the β-lactamase inhibitor: 128 µg/mL
  MIC of meropenem in the presence of the β-lactamase inhibitor: 256 µg/mL
S. maltophilia; CI-31, listed as 2
  MIC of aztreonam in the presence of the β-lactamase inhibitor: ≤ 4 µg/mL
S. maltophilia; CI-31, listed as BOR
  MIC of aztreonam in the presence of the β-lactamase inhibitor: 4 µg/mL
S. maltophilia; K279a
  MIC of aztreonam in the presence of the β-lactamase inhibitor: 1 µg/mL
  MIC of ceftazidime in the presence of the β-lactamase inhibitor: 0.5 µg/mL
  MIC of meropenem in the presence of the β-lactamase inhibitor: 4 µg/mL
S. maltophilia; K AMI 32
  MIC of aztreonam in the presence of the β-lactamase inhibitor: 1 µg/mL
  MIC of ceftazidime in the presence of the β-lactamase inhibitor: 1 µg/mL
  MIC of meropenem in the presence of the β-lactamase inhibitor: 4 µg/mL
S. maltophilia; K CAZ 10
  MIC of aztreonam in the presence of the β-lactamase inhibitor: 1 µg/mL
  MIC of ceftazidime in the presence of the β-lactamase inhibitor: 4 µg/mL
  MIC of meropenem in the presence of the β-lactamase inhibitor: 16 µg/mL
S. maltophilia; K MOX 8
  MIC of aztreonam in the presence of the β-lactamase inhibitor: 1 µg/mL
  MIC of ceftazidime in the presence of the β-lactamase inhibitor: 0.5 µg/mL
  MIC of meropenem in the presence of the β-lactamase inhibitor: 8 µg/mL
S. maltophilia; β-lactam and strain named in the value
  ability to potentiate β-lactams / reverse resistance (in words): reduce ceftazidime MICs against K279a
[1]
  induction of L1 production (in words): neither avibactam nor 2 induces L1 to any measurable extent
L1 MBL
  inhibition of L1 (in words): does not inhibit the class B3 MBL, L1

## O=C(O)c1cccc2c1O[B-](O)(O)[C@@H](NC(=O)C1CCCCC1)C2
BlaC; pre-incubation time 0 min
  pIC50: 6.83 ± 0.01
BlaC; pre-incubation time 10 min
  pIC50: 6.8 ± 0.1
BlaC; pre-incubation time 60 min
  pIC50: 6.94 ± 0.01

Where two headings read alike, the source gives them in different places.
